Results on 1 molecule are retold here after patent US20240408194A1, “DNA ORIGAMI SUBUNIT VACCINE FOR PREVENTION OF SARS-CoV-2 VARIANT INFECTION” (ARIZONA BOARD OF REGENTS ON BEHALF OF ARIZONA STATE …, published 2024).

For this assay, the target named is spike P1.

B1: LCB1 protein (designed binder)
chain: DKEWILQKIYEIMRLLDELGHAEASMRVSDLIYEFMKKGDERLLEEAERLLEEVER
As for B1, binding was put at a Kd of 0.75 nM.
